Test results taken from patent US20240109955A1 (published 2024).

Target: SARS-CoV-2 Omicron BA.4.6 spike protein (R346T, F486V) (SARS-CoV-2, UniProt P0DTC2 14-1273)
Experiment: cell-based or functional assay

Binder	IC50, pseudovirus neutralization	IC80, pseudovirus neutralization
MX834 (trispecific antibody) chain 1: QTVVTQEPSFSVSPGGTVTLTCGLSSGSVSTAYFPSWYQQTPGQAPRTLIYGTNTRSSGVPDRFSGSILGNKAALTITGAQADDESDYYCVLYMGRGIVVFGGGTKLTVLGGSSGEIVLTQSPGTLSLSPGERATLSCRASQSVSSSYLAWYQQKPGQAPRLLIYSASSRATGIPDRFSGSGSGTDFTLTISRLEPEDFAVYFCQQYVGLTGWTFGQGTKVEIKGGGGSGGSGSGGGGSASGSGQMQLVQSGPEVKKPGTSVKVSCKASGFTFTSSAVQWVRQRQRLEWIGWIVVGSGNTNYAQKFQERVTITRDMSTSTAYMELSSLRSEDTAVYYCAAPNCSNVVCYDGFDIWGQGTMVTVSSGGSSGQVQLVESGGGVVQPGRSLRLSCAASGFTLSSYGMHWVRQAPGKGLEWVAVISYDGSNKYYVDSVKGRFTISRDNSKNTLYLQMNSLRAEDTAVYYCRWAYWELLPDYYYGMDVWGQGTTVTVSSASGGSGDKTHTCPPCPAPELLGGPSVFLFPPKPKDTLMISRTPEVTCVVVDVSHEDPEVKFNWYVDGVEVHNAKTKPREEQYNSYVVSVLTVLHQDWLNGKEYKCKVSNKALPAPIEKTISKAKGQPREPQVYTLPPCRDELTKNQVSLWCLVKGFYPSDIAVEWESNGQPENNYKTTPPVLDSDGSFFKKLTVDKSRWQQGNVFSCSVLHEALHSHYTQKSLSLSPG chain 2: QTVVTQEPSFSVSPGGTVTLTCGLSSGSVSTAYFPSWYQQTPGQAPRTLIYGTNTRSSGVPDRFSGSILGNKAALTITGAQADDESDYYCVLYMGRGIVVFGGGTKLTVLGGSSGEIVLTQSPGTLSLSPGERATLSCRASQSVSSSYLAWYQQKPGQAPRLLIYSASSRATGIPDRFSGSGSGTDFTLTISRLEPEDFAVYFCQQYVGLTGWTFGQGTKVEIKGGGGSGGSGSGGGGSASGSGQMQLVQSGPEVKKPGTSVKVSCKASGFTFTSSAVQWVRQRQRLEWIGWIVVGSGNTNYAQKFQERVTITRDMSTSTAYMELSSLRSEDTAVYYCAAPNCSNVVCYDGFDIWGQGTMVTVSSGGSSGQVQLVESGGGVVQPGRSLRLSCAASGFTLSSYGMHWVRQAPGKGLEWVAVISYDGSNKYYVDSVKGRFTISRDNSKNTLYLQMNSLRAEDTAVYYCRWAYWELLPDYYYGMDVWGQGTTVTVSSASGGSGDKTHTCPPCPAPELLGGPSVFLFPPKPKDTLMISRTPEVTCVVVDVSHEDPEVKFNWYVDGVEVHNAKTKPREEQYNSYVVSVLTVLHQDWLNGKEYKCKVSNKALPAPIEKTISKAKGQPREPQVYTLPPCRDELTKNQVSLWCLVKGFYPSDIAVEWESNGQPENNYKTTPPVLDSDGSFFKKLTVDKSRWQQGNVFSCSVLHEALHSHYTQKSLSLSPG	24 nM	109 nM
MX837 (trispecific antibody) chain 1: QTVVTQEPSFSVSPGGTVTLTCGLSSGSVSTAYFPSWYQQTPGQAPRTLIYGTNTRSSGVPDRFSGSILGNKAALTITGAQADDESDYYCVLYMGRGIVVFGGGTKLTVLGGSSGEIVLTQSPGTLSLSPGERATLSCRASQSVSSSYLAWYQQKPGQAPRLLIYSASSRATGIPDRFSGSGSGTDFTLTISRLEPEDFAVYFCQQYVGLTGWTFGQGTKVEIKGGGGSGGSGSGGGGSASGSGQMQLVQSGPEVKKPGTSVKVSCKASGFTFTSSAVQWVRQRQRLEWIGWIVVGSGNTNYAQKFQERVTITRDMSTSTAYMELSSLRSEDTAVYYCAAPNCSNVVCYDGFDIWGQGTMVTVSSGGSSGQVQLVESGGGVVQPGRSLRLSCAASGFTLSSYGMHWVRQAPGKGLEWVAVISYDGSNKYYVDSVKGRFTISRDNSKNTLYLQMNSLRAEDTAVYYCRWAYWELLPDYYYGMDVWGQGTTVTVSSASGGSGDKTHTCPPCPAPELLGGPSVFLFPPKPKDTLMISRTPEVTCVVVDVSHEDPEVKFNWYVDGVEVHNAKTKPREEQYNSYVVSVLTVLHQDWLNGKEYKCKVSNKALPAPIEKTISKAKGQPREPQVYTLPPCRDELTKNQVSLWCLVKGFYPSDIAVEWESNGQPENNYKTTPPVLDSDGSFFKKLTVDKSRWQQGNVFSCSVLHEALHSHYTQKSLSLSPG chain 2: DIQMTQSPSSVSASVGDRVIITCRASQGISSWLAWYQQKPGKAPKVLIYDASSLQSGVPSRFSGSGYGTDFTLTISSLQPEDSATYYCQQAKSFPITFGQGTRLEIKGGSSGEIVLTQSPGTLSLSPGERATLSCRASQSVSSSYLAWYQQKPGQAPRLLIYSASSRATGIPDRFSGSGSGTDFTLTISRLEPEDFAVYFCQQYVGLTGWTFGQGTKVEIKGGGGSGGSGSGGGGSASGSGQMQLVQSGPEVKKPGTSVKVSCKASGFTFTSSAVQWVRQRQRLEWIGWIVVGSGNTNYAQKFQERVTITRDMSTSTAYMELSSLRSEDTAVYYCAAPNCSNVVCYDGFDIWGQGTMVTVSSGGSSGQVQLVESGGGVVQPGRSLRLSCAASGFTFSSYAFHWVRQAPGKGLEWVAVISYDGSNQYYADSVKGRFTISRDNSKNTLYLQMNSLRADDTAVYYCARDLAIAVAGTWHYYNGMDVWGQGTTVTVSSASGGSGDKTHTCPPCPAPELLGGPSVFLFPPKPKDTLMISRTPEVTCVVVDVSHEDPEVKFNWYVDGVEVHNAKTKPREEQYNSYVVSVLTVLHQDWLNGKEYKCKVSNKALPAPIEKTISKAKGQPREPQVCTLPPSRDELTKNQVSLSCAVKGFYPSDIAVEWESNGQPENNYKTTPPVLDSDGSFFLVSKLTVDKSRWQQGNVFSCSVLHEALHSHYTQKSLSLSPG	33 nM	80 nM
MX838 (trispecific antibody) chain 1: QTVVTQEPSFSVSPGGTVTLTCGLSSGSVSTAYFPSWYQQTPGQAPRTLIYGTNTRSSGVPDRFSGSILGNKAALTITGAQADDESDYYCVLYMGRGIVVFGGGTKLTVLGGSSGEIVLTQSPGTLSLSPGERATLSCRASQSVSSSYLAWYQQKPGQAPRLLIYSASSRATGIPDRFSGSGSGTDFTLTISRLEPEDFAVYFCQQYGGLTGWTFGQGTKVEIKGGGGSGGSGSGGGGSASGSGQMQLVQSGPEVKKPGTSVKVSCKASGFTFTSSAVQWVRQRQRLEWIGWIVVGSGNTNYAQKFQERVTITRDMSTSTAYMELSSLRSEDTAVYYCAAPNCSNVVCYDGFDIWGQGTMVTVSSGGSSGQVQLVESGGGVVQPGRSLRLSCAASGFTLSSYGMHWVRQAPGKGLEWVAVISYDGSNKYYVDSVKGRFTISRDNSKNTLYLQMNSLRAEDTAVYYCRWAYWELLPDYYYGMDVWGQGTTVTVSSASGGSGDKTHTCPPCPAPELLGGPSVFLFPPKPKDTLMISRTPEVTCVVVDVSHEDPEVKFNWYVDGVEVHNAKTKPREEQYNSYVVSVLTVLHQDWLNGKEYKCKVSNKALPAPIEKTISKAKGQPREPQVYTLPPCRDELTKNQVSLWCLVKGFYPSDIAVEWESNGQPENNYKTTPPVLDSDGSFFKKLTVDKSRWQQGNVFSCSVLHEALHSHYTQKSLSLSPG chain 2: DIQMTQSPSSVSASVGDRVIITCRASQGISSWLAWYQQKPGKAPKVLIYDASSLQSGVPSRFSGSGYGTDFTLTISSLQPEDSATYYCQQAKSFPITFGQGTRLEIKGGSSGEIVLTQSPGTLSLSPGERATLSCRASQSVSSSYLAWYQQKPGQAPRLLIYSASSRATGIPDRFSGSGSGTDFTLTISRLEPEDFAVYFCQQYGGLTGWTFGQGTKVEIKGGGGSGGSGSGGGGSASGSGQMQLVQSGPEVKKPGTSVKVSCKASGFTFTSSAVQWVRQRQRLEWIGWIVVGSGNTNYAQKFQERVTITRDMSTSTAYMELSSLRSEDTAVYYCAAPNCSNVVCYDGFDIWGQGTMVTVSSGGSSGQVQLVESGGGVVQPGRSLRLSCAASGFTFSSYAFHWVRQAPGKGLEWVAVISYDGSNQYYADSVKGRFTISRDNSKNTLYLQMNSLRADDTAVYYCARDLAIAVAGTWHYYNGMDVWGQGTTVTVSSASGGSGDKTHTCPPCPAPELLGGPSVFLFPPKPKDTLMISRTPEVTCVVVDVSHEDPEVKFNWYVDGVEVHNAKTKPREEQYNSYVVSVLTVLHQDWLNGKEYKCKVSNKALPAPIEKTISKAKGQPREPQVCTLPPSRDELTKNQVSLSCAVKGFYPSDIAVEWESNGQPENNYKTTPPVLDSDGSFFLVSKLTVDKSRWQQGNVFSCSVLHEALHSHYTQKSLSLSPG	23 nM	104 nM
MX835 (trispecific antibody) chain 1: QTVVTQEPSFSVSPGGTVTLTCGLSSGSVSTAYFPSWYQQTPGQAPRTLIYGTNTRSSGVPDRFSGSILGNKAALTITGAQADDESDYYCVLYMGRGIVVFGGGTKLTVLGGSSGEIVLTQSPGTLSLSPGERATLSCRASQSVSSSYLAWYQQKPGQAPRLLIYSASSRATGIPDRFSGSGSGTDFTLTISRLEPEDFAVYFCQQYGGLTGWTFGQGTKVEIKGGGGSGGSGSGGGGSASGSGQMQLVQSGPEVKKPGTSVKVSCKASGFTFTSSAVQWVRQRQRLEWIGWIVVGSGNTNYAQKFQERVTITRDMSTSTAYMELSSLRSEDTAVYYCAAPNCSNVVCYDGFDIWGQGTMVTVSSGGSSGQVQLVESGGGVVQPGRSLRLSCAASGFTLSSYGMHWVRQAPGKGLEWVAVISYDGSNKYYVDSVKGRFTISRDNSKNTLYLQMNSLRAEDTAVYYCRWAYWELLPDYYYGMDVWGQGTTVTVSSASGGSGDKTHTCPPCPAPELLGGPSVFLFPPKPKDTLMISRTPEVTCVVVDVSHEDPEVKFNWYVDGVEVHNAKTKPREEQYNSYVVSVLTVLHQDWLNGKEYKCKVSNKALPAPIEKTISKAKGQPREPQVYTLPPCRDELTKNQVSLWCLVKGFYPSDIAVEWESNGQPENNYKTTPPVLDSDGSFFKKLTVDKSRWQQGNVFSCSVLHEALHSHYTQKSLSLSPG chain 2: EIVLTQSPGTLSLSPGERATLSCRASQSVSSSYLAWYQQKPGQAPRLLIYSASSRATGIPDRFSGSGSGTDFTLTISRLEPEDFAVYFCQQYGGLTGWTFGQGTKVEIKGGSSGDIQMTQSPSSVSASVGDRVIITCRASQGISSWLAWYQQKPGKAPKVLIYDASSLQSGVPSRFSGSGYGTDFTLTISSLQPEDSATYYCQQAKSFPITFGQGTRLEIKGGGGSGGSGSGGGGSASGSGQVQLVESGGGVVQPGRSLRLSCAASGFTFSSYAFHWVRQAPGKGLEWVAVISYDGSNQYYADSVKGRFTISRDNSKNTLYLQMNSLRADDTAVYYCARDLAIAVAGTWHYYNGMDVWGQGTTVTVSSGGSSGQMQLVQSGPEVKKPGTSVKVSCKASGFTFTSSAVQWVRQRQRLEWIGWIVVGSGNTNYAQKFQERVTITRDMSTSTAYMELSSLRSEDTAVYYCAAPNCSNVVCYDGFDIWGQGTMVTVSSASGGSGDKTHTCPPCPAPELLGGPSVFLFPPKPKDTLMISRTPEVTCVVVDVSHEDPEVKFNWYVDGVEVHNAKTKPREEQYNSYVVSVLTVLHQDWLNGKEYKCKVSNKALPAPIEKTISKAKGQPREPQVCTLPPSRDELTKNQVSLSCAVKGFYPSDIAVEWESNGQPENNYKTTPPVLDSDGSFFLVSKLTVDKSRWQQGNVFSCSVLHEALHSHYTQKSLSLSPG	19 nM	92 nM
